Measured values from several laboratories, pooled; numbers as filed in NIAID ChemDB.

Shared fields: tests on isolated targets; agent: HIV-1; target: Reverse transcriptase; read-out: fold resistance

Fold resistance has wild type as its base. a–b is a range or a potency band. Lines come from different laboratories, so protocols vary. Blank or dashed fields: not listed here.

| smiles | strain | read by | changes | result |
|---|---|---|---|---|
| Nc1ncnc2c1ncn2[C@H]1CC[C@@H](COP(=O)(O)OP(=O)(O)OP(=O)(O)O)O1 |  | nucleotide incorporation / radiometric | RT-Q151M | 6.84 |
| Cc1c(Cc2c(F)cccc2F)nc(N(C)C)[nH]c1=O | IIIB | nucleotide incorporation / radiometric | RT-L100I | 12.5 |
| CC(C)=CCN1Cc2cccc3[nH]c(=S)n(c23)C[C@@H]1C |  |  | RT-Q161L H208Y | 1.9 |
| CCN1c2ncc(CCOc3ccc(S(N)(=O)=O)c4ccccc34)cc2C(=O)N(C)c2cccnc21 |  | nucleotide incorporation / radiometric | RT-Y188L | 1–10 |
| Cc1cn([C@H]2CC[C@@H](COP(=O)(O)OP(=O)(O)OP(=O)(O)O)O2)c(=O)[nH]c1=O |  | nucleotide incorporation / radiometric | RT-T139V | 1 |
| CCC1(c2ccc(CNc3cccc(F)c3)cc2)Oc2ccccc2-n2cccc2C1=O |  | nucleotide incorporation / radiometric | RT-Y181I | >25 |
| CCCCOc1ccc(CSc2nc(Cc3c(Cl)cccc3Cl)c(C)c(=O)[nH]2)cc1 |  | nucleotide incorporation / radiometric | RT-181I | >142.8 |
| O=c1c2cccn2c2ccccc2n1CCNC(=S)Nc1ccc(Cl)cn1 |  | nucleotide incorporation | RT-K103N | 33 |
| CNc1ccc(Cl)cc1S(=O)(=O)c1ccccc1[N+](=O)[O-] |  |  | RT-V106A | 0.182 |
| CCOCn1c(Cc2ccccc2)c(C(C)C)c(=O)[nH]c1=O |  | nucleotide incorporation / radiometric | RT-P225H | 4.1 |
| CCC1(c2cccc(N)c2)Oc2ccccc2-n2cccc2C1=O |  | nucleotide incorporation / radiometric | RT-K103N | 6.6 |
| CCc1cc(CCc2nc3c(Cl)ccc(Cl)c3o2)c(=S)[nH]c1C |  | nucleotide incorporation | RT-K103N Y181C | 3 |
| Cc1cc(C)cc(S(=O)(=O)c2c(C(=O)NNCCO)[nH]c3ccc(Cl)cc23)c1 |  | nucleotide incorporation / radiometric | RT-V179D | >666 |
| Cc1c(Cc2c(Cl)cccc2Cl)nc(SCc2ccccc2)[nH]c1=O |  | nucleotide incorporation / radiometric | RT-181I | >160 |
| CCN1c2ncc(CCOc3ccc(CC(=O)O)c4ccccc34)cc2C(=O)N(C)c2ccc(F)nc21 |  | nucleotide incorporation / radiometric | RT-K103N Y181C | 1–10 |
| CC(C)=CCOc1cc(NC(=S)c2ccoc2C)ccc1Cl |  | nucleotide incorporation / radiometric | RT-V106A | 19 |
| CCC1(c2cccc(I)c2)Oc2ccccc2-n2cccc2C1=O |  | nucleotide incorporation / radiometric | RT-Y181I | >200 |
| Cc1c(C(C)c2c(F)cccc2F)nc(SC2CCCC2)[nH]c1=O |  | nucleotide incorporation / radiometric | RT-K103N | 8 |
| CCc1cc(CCc2nc3ccccc3o2)c(=O)[nH]c1C |  | nucleotide incorporation | RT-Y181C | 600 |
| Cc1cn([C@H]2CC[C@@H](COP(=O)(O)OP(=O)(O)OP(=O)(O)O)O2)c(=O)[nH]c1=O |  | RT activity | RT-K103N | 0.75 |
| Cc1c(Cc2c(Cl)cccc2Cl)nc(SCc2ccc3c(c2)OCO3)[nH]c1=O |  | nucleotide incorporation / radiometric | RT-181I | >800 |
| CCC1(c2ccc(COc3cccc(Cl)c3)cc2)Oc2ccccc2-n2cccc2C1=O |  | nucleotide incorporation / radiometric | RT-Y181I | >100 |
| Cc1c(C(C)c2c(F)cccc2F)nc(N2CCOCC2)[nH]c1=O | IIIB | nucleotide incorporation / radiometric | RT-V179D | >6670 |
| Cc1c(Sc2ccccc2)n(COCCO)c(=O)[nH]c1=O |  |  | RT-L100I | >10 |
| Cc1cc(S(N)(=O)=O)ccc1NC(=O)COc1ccc(Cl)cc1C(=O)c1cc(Cl)cc(C#N)c1 |  | fluorescence | RT-Y181C | 1.27 |
| O=c1c2cccn2c2cccc(F)c2n1CCNC(=S)Nc1ccc(Br)cn1 |  | nucleotide incorporation | RT-Y181I | 22.2 |
| CCC1(c2ccc(COc3cccnc3)cc2)Oc2ccccc2-n2cccc2C1=O |  | nucleotide incorporation / radiometric | RT-Y188L | 9.75 |
| CC(C)(C)OC(=O)Cn1cnc2c(Oc3ccccc3[N+](=O)[O-])nc(NC(=O)OCc3ccccc3)nc21 | NNRTI-resistant | nucleotide incorporation / radiometric | K103N | 89 |
| Cc1cc2c(cc1C)n1cccc1c(=O)n2CCNC(=S)Nc1ccc(Br)cn1 |  | nucleotide incorporation | RT-K103N | 4 |
| CCc1c(Sc2ccccn2)n(COCc2ccccc2)c(=O)[nH]c1=O |  |  | RT-P236L | 1 |
| CCC1(c2cccc(Cl)c2)Cc2ccccc2-n2cccc2C1=O |  | nucleotide incorporation / radiometric | RT-L100I | 3 |
| CCN1c2ncc(CCOc3ccc(CC(N)=O)c4ccccc34)cc2C(=O)N(C)c2cccnc21 |  | nucleotide incorporation / radiometric | RT-Y188L | >10 |
| COc1ccc(CSc2nc(Cc3c(F)cccc3F)c(C)c(=O)[nH]2)cc1 |  | nucleotide incorporation / radiometric | RT-181I | >57142 |
| Cc1occc1C(=S)Nc1ccc(Cl)c(/C=N/OC(C)(C)C)c1 |  |  | RT-L74V | 1.11 |
| CCN1c2ncc(CCOc3ccc4cc(C(=O)O)ccc4c3)cc2C(=O)N(C)c2cccnc21 |  | nucleotide incorporation / radiometric | RT-Y188L | >10 |
| C/C=C/CSc1cc(NC(=S)c2ccsc2C)ccc1Cl |  |  | RT-Y181I | 4.73 |
| Cc1cn([C@H]2C=C[C@@H](COP(=O)(O)OP(=O)(O)OP(=O)(O)O)O2)c(=O)[nH]c1=O |  | nucleotide incorporation / radiometric | RT-P225H | 0.6 |
| COc1ccc(/C=C/NC(=O)Nc2ccc(Cl)cn2)cc1OC |  | nucleotide incorporation | RT-Y181I | 2.86 |
| Nc1ccn([C@@H]2CS[C@H](COP(=O)(O)OP(=O)(O)OP(=O)(O)O)O2)c(=O)n1 |  | nucleotide incorporation / radiometric | RT-Q151M | 1.77 |
| CCOc1cccc(C2(CC)Oc3ccccc3-n3cccc3C2=O)c1 |  | nucleotide incorporation / radiometric | RT-Y188L | 1 |
| O=C1c2cccnc2C(=O)N1CCNC(=S)Nc1ccc(Br)cn1 |  | nucleotide incorporation | RT-V106A | 5.26 |
| CCC1(c2ccc(COc3ccccc3)cc2)Oc2ccccc2-n2cccc2C1=O |  | nucleotide incorporation / radiometric | RT-V106A | 5.2 |
| O=C(O)Cn1cnc2c(=O)[nH]c(NC(=O)OCc3ccccc3)nc21 | NNRTI-resistant | nucleotide incorporation / radiometric | Y188L | 5.47 |
| Cc1c(Cc2c(Cl)cccc2Cl)nc(SCc2ccc(C(C)C)cc2)[nH]c1=O |  | nucleotide incorporation / radiometric | RT-181I | ~1 |
| Nc1ncnc2c1ncn2[C@@H]1O[C@H](COP(=O)(O)OP(=O)(O)OP(=O)(O)O)C[C@@H]1F |  | nucleotide incorporation / radiometric | RT-K65R | 11.15 |
| CC(C)=CCN1Cc2cc(Cl)cc3[nH]c(=O)n(c23)C[C@@H]1C |  | nucleotide incorporation / radiometric | RT-V106A P225H | 68 |
| Nc1ncnc2c1ncn2CCOCP(=O)(O)OP(=O)(O)OP(=O)(O)O |  | nucleotide incorporation / radiometric | RT-T215Y | 1.24 |
| CCC1(c2ccc(CCc3ccccc3)cc2)Oc2ccccc2-n2cccc2C1=O |  | nucleotide incorporation / radiometric | RT-Y181I | >58.8 |
| CC(C)=CCOc1cc(NC(=S)c2ccoc2C)ccc1Cl |  |  | RT-Y188L | 31.25 |

Repeating the first 6 entries:

smiles | strain | read by | changes | result
Nc1ncnc2c1ncn2[C@H]1CC[C@@H](COP(=O)(O)OP(=O)(O)OP(=O)(O)O)O1 |  | nucleotide incorporation / radiometric | RT-Q151M | 6.84
Cc1c(Cc2c(F)cccc2F)nc(N(C)C)[nH]c1=O | IIIB | nucleotide incorporation / radiometric | RT-L100I | 12.5
CC(C)=CCN1Cc2cccc3[nH]c(=S)n(c23)C[C@@H]1C |  |  | RT-Q161L H208Y | 1.9
CCN1c2ncc(CCOc3ccc(S(N)(=O)=O)c4ccccc34)cc2C(=O)N(C)c2cccnc21 |  | nucleotide incorporation / radiometric | RT-Y188L | 1–10
Cc1cn([C@H]2CC[C@@H](COP(=O)(O)OP(=O)(O)OP(=O)(O)O)O2)c(=O)[nH]c1=O |  | nucleotide incorporation / radiometric | RT-T139V | 1
CCC1(c2ccc(CNc3cccc(F)c3)cc2)Oc2ccccc2-n2cccc2C1=O |  | nucleotide incorporation / radiometric | RT-Y181I | >25